Consider 55 compounds from PubChem BioAssay AID743269 (The Scripps Research Institute Molecular Screening Center, 2014).

The list shows a part of the results, in another mix than the full data. The source made the active and inactive calls.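 The calls were made as follows: active = inhibition above the screen-wide mean plus 3 SD (cut at about 13% in these data); inactive = the rest.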

In the assay the test system is HIV-1 integrase (with human LEDGF/p75). In words: blockers of LEDGF/p75-dependent integrase strand transfer – biochemical, TR-FRET, high throughput, primary screen (AID 743269).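 Also: signal is the Cy5 over europium emission ratio at 671 and 618 nm; 0% = plate median of compound wells.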 Particulars: TR-FRET IN-LEDGF/p75 DNA integration, Eu/Cy5; at 3.7 µM; active compounds read high.
A word on the inhibition: it is the relative decrease from the control value, in per cent. As for `CN1CCC(Nc2ccc(Cl)cc2)CC1`, the inhibition is inactive: -4.19%.

With `COc1cc(OC)cc(C(=O)NCC2(N3CCOCC3)CCCCC2)c1`, the inhibition is inactive: 4.62%.

With `COc1cccc(C(c2nnnn2C2CCCC2)N2CCC(n3c(=O)[nH]c4ccccc43)CC2)c1OC` (stereo not given), the inhibition was inactive: 4.28%.

Consider `COc1cccc(C(=O)N(c2cc(C)cc(C)c2)C2CCN(C(=O)OC(C)(C)C)CC2)c1`, for which the inhibition was inactive: 0.32%.

Turning to `CCC(CO)(C(=O)OC1CN2CCC1CC2)c1ccccc1` (stereo not given), the inhibition is inactive: 0.29%.

With `CC(C)(C)OC(=O)N1CCC(Nc2ccccc2)CC1`, the inhibition is inactive: -1.9%.

`O=C(O)C1(Nc2ccccc2)CCN(Cc2ccccc2)CC1`: the inhibition was inactive: 0.91%.

Consider `NN(c1ccccc1)C1CCN(CCc2ccccc2)CC1`, for which the inhibition was inactive: 3.98%.

For the compound `CCCOc1ccc(C(=O)NCC2(N(C)C)CCCCC2)cc1`, the inhibition is inactive: -1.52%.

Regarding `O=c1[nH]c2ccccc2n1C1CCN(C(c2cc3ccccc3o2)c2nnnn2C2CCCC2)CC1` (stereo not given), the inhibition was inactive: 0.48%.

Regarding `CCOc1ncccc1C(=O)NCC1(N2CCOCC2)CCCCC1`, the inhibition is inactive: 0.79%.

For `CN1CCC(Nc2ccc(F)c(Cl)c2)CC1`, the inhibition is inactive: -4.26%.

As for `O=C(NCC1(N2CCCCC2)CCCCC1)c1ccco1`, the inhibition is inactive: 3.4%.

On to `Cn1c(=O)[nH]cc(N(CCCl)CCCl)c1=O`, for which the inhibition was inactive: -3.4%.

In the case of `CN(C)c1ccc(C(=O)NCC2(N3CCCCC3)CCCCC2)cc1`, the inhibition was inactive: -6.32%.

As for `Cc1ccccc1NC1(C#N)CCN(Cc2ccccc2)CC1`, the inhibition is inactive: 2.17%.

Turning to `CC(C)(C)n1nnnc1C(c1ccnc2ccccc12)N1CCC(n2c(=O)[nH]c3ccccc32)CC1` (stereo not given), the inhibition was inactive: -3.45%.

For `CCN1CCC(Nc2cccc(F)c2)CC1`, the inhibition is inactive: 1.43%.

As for `COc1ccc(C(c2nnnn2C2CCCCC2)N2CCC(n3c(=O)[nH]c4ccccc43)CC2)cc1` (stereo not given), the inhibition was inactive: 0.43%.

Consider `Cc1ccc(C(=O)NCC2(N3CCCCC3)CCCCC2)o1`, for which the inhibition was inactive: 0.52%.

Regarding `Fc1ccccc1NC1CCN(Cc2ccccc2)CC1`, the inhibition is inactive: 3.61%.

Take `Cc1ccc(NC2(C#N)CCN(Cc3ccccc3)CC2)cc1`: the inhibition is inactive: -0.69%.

Take `CC(=O)N(c1ccccc1)C1CCNCC1`: the inhibition was inactive: -5.72%.

With `COc1cccc(C(c2nnnn2C2CCCCC2)N2CCC(n3c(=O)[nH]c4ccccc43)CC2)c1OC` (stereo not given), the inhibition was inactive: 5.76%.

In the case of `CCC(c1nnnn1C1CCCCC1)N1CCC(n2c(=O)[nH]c3ccccc32)CC1` (stereo not given), the inhibition is inactive: 6.45%.

In the case of `O=c1[nH]c2ccccc2n1C1CCN(C(c2ccnc3ccccc23)c2nnnn2C2CCCCC2)CC1` (stereo not given), the inhibition is inactive: 7.75%.

`COc1cc(OC)cc(C(=O)NCC2(N3CCCCC3)CCCCC2)c1`: the inhibition was inactive: 2.75%.

Take `CC(C)(C)n1nnnc1C(c1cccc2ccccc12)N1CCC(n2c(=O)[nH]c3ccccc32)CC1` (stereo not given): the inhibition is inactive: -2.58%.

Take `CN(C)C1(CNC(=O)c2cccc(C#N)c2)CCCCC1`: the inhibition was inactive: -1.61%.

For `c1ccc(CN2CCC(Nc3ccccc3)CC2)cc1`, the inhibition is inactive: -5.55%.

For the compound `C/C(N)=N\P(=O)(Oc1ccccc1)Oc1ccccc1`, the inhibition was inactive: 1.09%.

With `Cc1cc(N(CCCl)CCCl)ccc1C=O`, the inhibition was inactive: 1.61%.

Turning to `O=c1[nH]c2ccccc2n1C1CCN(C(c2ccccc2)c2nnnn2C2CCCC2)CC1` (stereo not given), the inhibition is inactive: 4.09%.

With `CCCN1CCC(Nc2cc(OC)cc(OC)c2)CC1`, the inhibition is inactive: 2.96%.

Turning to `N#Cc1ccc(C(=O)NCC2(N3CCCCC3)CCCCC2)cc1`, the inhibition is inactive: 1.21%.

For the compound `CC(C)(C)OC(=O)N1CCC(N(C(=O)c2ccccc2)c2ccc(Cl)cc2)CC1`, the inhibition was inactive: 1.37%.

As to `O=C(OC1CN2CCC1CC2)C1c2ccccc2C=Cc2ccccc21` (stereo not given), the inhibition was inactive: 2.08%.

Take `O=c1[nH]c2ccccc2n1C1CCN(C(c2cccs2)c2nnnn2C2CCCC2)CC1` (stereo not given): the inhibition is inactive: 2.46%.

Consider `CCCCn1nnnc1C(c1cccc(OC)c1OC)N1CCC(n2c(=O)[nH]c3ccccc32)CC1` (stereo not given), for which the inhibition was inactive: 3.35%.

Regarding `COc1cccc(C(c2nnnn2C(C)(C)C)N2CCC(n3c(=O)[nH]c4ccccc43)CC2)c1OC` (stereo not given), the inhibition was inactive: -3.32%.

On to `CCOC(=O)N1CCC(Nc2ccc(C)cc2)CC1`, for which the inhibition was inactive: -11.3%.

As to `N/C(=N\O)c1c(N)no[n+]1[O-]`, the inhibition is inactive: 0.32%.

For `O=c1[nH]c2ccccc2n1C1CCN(C(c2cccs2)c2nnnn2C2CCCCC2)CC1` (stereo not given), the inhibition is inactive: -4.18%.

On to `NC(=O)C1(Nc2ccccc2)CCN(Cc2ccccc2)CC1`, for which the inhibition is inactive: -3.04%.

As to `COc1ccc(C(=O)NCC2(N3CCOCC3)CCCCC2)cc1OC`, the inhibition was inactive: 1.65%.

As for `O=c1[nH]c2ccccc2n1C1CCN(C(c2ccnc3ccccc23)c2nnnn2C2CCCC2)CC1` (stereo not given), the inhibition was inactive: 2.07%.

On to `CCCCn1nnnc1C(c1ccccc1)N1CCC(n2c(=O)[nH]c3ccccc32)CC1` (stereo not given), for which the inhibition is inactive: -1.06%.

Take `COc1cc(C(=O)NCC2(N3CCOCC3)CCCCC2)cc(OC)c1C`: the inhibition is inactive: 1.87%.

For `O=C(NCC1(N2CCOCC2)CCCCC1)c1cc(Br)ccc1Cl`, the inhibition is inactive: -2.75%.

Take `COc1ccc(C(c2nnnn2C2CCCC2)N2CCC(n3c(=O)[nH]c4ccccc43)CC2)cc1` (stereo not given): the inhibition was inactive: 4.17%.

Take `Cc1ccc(C(=O)NCC2(N(C)C)CCCCC2)o1`: the inhibition was inactive: 1.75%.

`CCCOc1ccc(C(=O)NCC2(N(C)C)CCCCC2)cc1OC`: the inhibition is inactive: -2.75%.

Take `O=C(NCC1(N2CCCCC2)CCCCC1)c1cncc(Br)c1`: the inhibition was inactive: -2.63%.

`CN1CCC(Nc2cccc(F)c2)CC1`: the inhibition is inactive: 0.97%.

On to `COc1cc(OC)c(C(=O)NCC2(N(C)C)CCCCC2)cc1OC`, for which the inhibition was inactive: -4.58%.
